PubChem BioAssay AID1224833 – University of Georgia – 2016
Here is an unselected part of about 12,000 reagents. About 5,600 of all reagents (46%) were called active. 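Active calls cover z-scores past 1 in both directions, so they include lowered as well as raised rotavirus replication.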 A number with no mark means an inactive call. Reagent sequences are not shown.

- Test: 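Host factors restraining rotavirus as candidate antiviral genes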 (primary screen)
- Cells: monkey MA104 kidney cells
- Reagents: siRNA pool against human genes, 50 nM
- Duration: 48 h knock-down before infection; read 24 h after infection
- Treatment: infection with rotavirus strain RV3 two days after transfection; infectious dose for this stage not given
- Measured: 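z-score of rotavirus antigen signal per well, from a fluorescent immunoassay, relative to non-targeting control wells on the same plate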
- Direction: z-score vs non-targeting control: higher = more rotavirus replication than with non-targeting control
- Call rule: In these data the active calls have z-score vs non-targeting control at about -1 or lower, or at about 1 or higher
- Calls: active = z-score beyond 1 either way; inactive = z-score within 1 of zero

With knock-down of UGGT2 (UDP-glucose glycoprotein glucosyltransferase 2), the record shows z-score vs non-targeting control -0.959.
OR51D1 (olfactory receptor family 51 subfamily D member 1) gave z-score vs non-targeting control -1.02 (active).
CHCHD3 (coiled-coil-helix-coiled-coil-helix domain containing 3) showed z-score vs non-targeting control 1.21 (active).
FRMD5 (FERM domain containing 5) scored z-score vs non-targeting control 1.28 (active).
With knock-down of ZMAT4 (zinc finger matrin-type 4) the results were z-score vs non-targeting control -0.193.
For OR8U3 (olfactory receptor family 8 subfamily U member 3) the deposit lists z-score vs non-targeting control -1.56 (active).
Against RAPGEF3 (Rap guanine nucleotide exchange factor 3) the deposit lists z-score vs non-targeting control -0.318.
For SPPL3 (signal peptide peptidase like 3) the deposit lists z-score vs non-targeting control -3.94 (active).
Knock-down of EPN1 (epsin 1) resulted in: z-score vs non-targeting control -1.69 (active).
SLC40A1 scored z-score vs non-targeting control -0.776.
With knock-down of NUP42 (nucleoporin 42) the results were z-score vs non-targeting control 1.17 (active).
Knock-down of CCDC69 (coiled-coil domain containing 69) came out at: z-score vs non-targeting control -1.58 (active).
For KERA (keratocan) the deposit lists z-score vs non-targeting control -0.128.
HSF1 (heat shock transcription factor 1) scored z-score vs non-targeting control -2.03 (active).
Knock-down of ELL2 (elongation factor for RNA polymerase II 2) resulted in: z-score vs non-targeting control -0.595.
SLC6A7 showed z-score vs non-targeting control -0.575.
POLD4 (DNA polymerase delta 4, accessory subunit) gave z-score vs non-targeting control -1.57 (active).

Entries above whose target name starts with C or c:
CHCHD3 (coiled-coil-helix-coiled-coil-helix domain containing 3) — z-score vs non-targeting control: 1.21 (active)
CCDC69 (coiled-coil domain containing 69) — z-score vs non-targeting control: -1.58 (active)

The list goes on:
Knock-down of NELFA (negative elongation factor complex member A) came out at: z-score vs non-targeting control -1.27 (active).
Against BCAR3 (BCAR3 adaptor protein, NSP family member), the entry reads z-score vs non-targeting control -2.1 (active).
OR7G1 (olfactory receptor family 7 subfamily G member 1) scored z-score vs non-targeting control -1.61 (active).
Against CDCP2 (CUB domain containing protein 2) the deposit lists z-score vs non-targeting control -1.25 (active).
Knock-down of SLC30A6 came out at: z-score vs non-targeting control 0.835.
Knock-down of SAGE1 (sarcoma antigen 1) resulted in: z-score vs non-targeting control -0.827.
PI16 (peptidase inhibitor 16) gave z-score vs non-targeting control 0.181.
SP1 (Sp1 transcription factor) showed z-score vs non-targeting control -0.51.
HTATIP2 (HIV-1 Tat interactive protein 2) showed z-score vs non-targeting control -1.18 (active).
With knock-down of AMOT (angiomotin), the record shows z-score vs non-targeting control -1.08 (active).
Depletion of CMTM4 (CKLF like MARVEL transmembrane domain containing 4) gave: z-score vs non-targeting control -0.425.
Depletion of LAMC1 (laminin subunit gamma 1) came out at: z-score vs non-targeting control 0.177.
Against ARTN (artemin) the deposit lists z-score vs non-targeting control -0.105.
Depletion of CD209 (CD209 molecule) gave: z-score vs non-targeting control -0.724.
Depletion of KAT2A (lysine acetyltransferase 2A) came out at: z-score vs non-targeting control -0.688.
